For assay [1], the system named is HIV replication in C8166 cells, virus coding for mutant reverse transcriptase K103N/Y181C. Briefly: ELISA (p24) assay for activity in cell culture, mutant virus. The class given is cell-based, HIV-1. As to conditions: Human immunodeficiency virus 1, C8166, 72 h, read-out: EC50 K103N/Y181C (nM). On the technique in general: ELISA stands for enzyme-linked immunosorbent assay.

For assay [2], the target named is HIV-1 RT K103N/Y181C (Human immunodeficiency virus type 1 group M subtype B, UniProt P03366, K702N/Y780C). Briefly: Reverse Transcriptase (RT) assay, radiometric SPA, double mutant enzyme. The class given is biochemical.

In general, IC50 refers to the midpoint of a concentration-inhibition curve. Low values mean greater potency in that assay, high ones weaker potency in that assay. Take `CCN1c2ncc(CCOc3ccc(C=CC(=O)O)cc3C)cc2C(=O)N(C)c2cccnc21` [Entry 1010]: the EC50 in assay [1] is less than 50 nM. In addition, the IC50 in assay [2] is less than 50 nM.
`CCN1c2ncc(CCOc3ccc(C(=O)OC)cc3Cl)cc2C(=O)N(C)c2cccnc21` [Entry 1032] gave an IC50 in assay [2] of less than 50 nM.
Regarding `CCN1c2ncc(CCOc3ccc(C(=O)O)cc3C)cc2C(=O)N(C)c2ccc(C)nc21` [Entry 1017], the IC50 in assay [2] was more than 100 nM.
On to `CCN1c2ncc(CCOc3ccc(C(=O)O)cc3C)cc2C(=O)N(C)c2ccc(N(C)C)nc21` [Entry 1028], for which the IC50 in assay [2] was more than 100 nM.
With `CCN1c2ncc(CCOc3ccc(C(=O)O)cc3C)cc2C(=O)N(C)c2cccnc21` [Entry 1002], the EC50 in assay [1] was less than 50 nM. In assay [2], this compound gave a concentration for half-maximal inhibition (IC50) of more than 100 nM.
Compound `CCN1c2ncc(CCOc3ccc(CC(=O)O)cc3Cl)cc2C(=O)N(C)c2cccnc21` [Entry 1011] had an IC50 in assay [2] of more than 100 nM.
Still for that read-out and setting: the figure for `CCN1c2ncc(CCOc3ccc(CC(=O)O)cc3Br)cc2C(=O)N(C)c2cccnc21` [Entry 1012] is more than 100 nM.
Regarding `CCN1c2ncc(CCOc3ccc(C(=O)OC)cc3C)cc2C(=O)N(C)c2cccnc21` [Entry 1030], in assay [1], the EC50 is less than 50 nM. This compound yielded an IC50 in assay [2] of less than 50 nM.
Consider `CCN1c2ncc(CCOc3ccc(C(C)C(=O)O)cc3C)cc2C(=O)N(C)c2cccnc21` (stereo not drawn) [Entry 1006], for which the IC50 in assay [2] was more than 100 nM.
In turn, `CCN1c2ncc(CCOc3ccc(C(=O)OC)cc3C(F)(F)F)cc2C(=O)N(C)c2cccnc21` [Entry 1033] came in with an IC50 in assay [2] of more than 100 nM.
`CCN1c2ncc(CCOc3ccc(C(=O)O)cc3C)cc2C(=O)N(C)c2ccc(Cl)nc21` [Entry 1015] registered an IC50 in assay [2] of 50 to 100 nM.
On to `CCN1c2ncc(CCOc3ccc(CCC(=O)O)cc3C)cc2C(=O)N(C)c2ccc(Cl)nc21` [Entry 1007], for which, in assay [1], the EC50 lay in the range of 50 to 100 nM. In assay [2], the IC50 is 50 to 100 nM.
As to `CCN1c2ncc(CCOc3ccc(C(=O)O)cc3C)cc2C(=O)Nc2c(C)cc(Cl)nc21` [Entry 1016], the IC50 in assay [2] was more than 100 nM.
Compound `CCN1c2ncc(CCOc3ccc(C(=O)O)c(N)c3)cc2C(=O)N(C)c2cccnc21` [Entry 1024] displayed an IC50 in assay [2] of more than 100 nM.
Take `CCOc1ccc2c(n1)N(CC)c1ncc(CCOc3ccc(C(=O)OC)cc3C)cc1C(=O)N2C` [Entry 1034]: the half-maximal inhibitory concentration (IC50) in assay [2] lay within 50 to 100 nM.
With `CCOc1ccc2c(n1)N(CC)c1ncc(CCOc3ccc(C(=O)O)cc3C)cc1C(=O)N2C` [Entry 1021], the IC50 in assay [2] is more than 100 nM.
Consider `CCN1c2ncc(CCOc3ccc(C(=O)O)c(O)c3C)cc2C(=O)N(C)c2cccnc21` [Entry 1004], for which the EC50 in assay [1] was more than 100 nM. In assay [2], this compound had an IC50 of more than 100 nM.
`CCN1c2ncc(CCOc3ccc(CCC(=O)O)cc3C)cc2C(=O)N(C)c2cccnc21` [Entry 1008]: the EC50 in assay [1] was more than 100 nM. Also, the IC50 in assay [2] was more than 100 nM.
As to `CCN1c2ncccc2NC(=O)c2cc(CCOc3ccc(C(=O)O)cc3C)cnc21` [Entry 1029], the IC50 in assay [2] was more than 100 nM.
With `CCN1c2ncc(CCOc3ccc(C(=O)O)cc3C(F)(F)F)cc2C(=O)N(C)c2cccnc21` [Entry 1027], the IC50 in assay [2] was more than 100 nM.
`CCN1c2ncc(CCOc3ccc(C(=O)O)cc3C)cc2C(=O)N(C)c2ccc(OC)nc21` [Entry 1019]: the IC50 in assay [2] is more than 100 nM.
Regarding `CCN1c2ncc(CCOc3ccc(C(=O)O)cc3Br)cc2C(=O)N(C)c2cccnc21` [Entry 1005], the IC50 in assay [2] is more than 100 nM.
As for `CCN1c2ncc(CCOc3ccc(CC(=O)O)cc3C)cc2C(=O)N(C)c2cccnc21` [Entry 1014], in assay [1], the EC50 was more than 100 nM. For the same compound, in assay [2], the half-maximal inhibitory concentration (IC50) was more than 100 nM.
On to `CCN1c2ncc(CCOc3ccc(C(=O)O)cc3[N+](=O)[O-])cc2C(=O)N(C)c2cccnc21` [Entry 1022], for which, in assay [1], the EC50 is more than 100 nM. Further, the IC50 in assay [2] was more than 100 nM.
The compound `CCN1c2ncc(CCOc3ccc(CC(=O)O)c(C)c3C)cc2C(=O)N(C)c2cccnc21` [Entry 1013] came in with an IC50 in assay [2] of more than 100 nM.
Turning to `CCN1c2ncc(CCOc3ccc(C=CC(=O)O)cc3C)cc2C(=O)N(C)c2ccc(Cl)nc21` [Entry 1009], the EC50 in assay [1] is less than 50 nM. In assay [2], this compound had an IC50 of less than 50 nM.
In turn, `CCc1cc(C(=O)OC)ccc1OCCc1cnc2c(c1)C(=O)N(C)c1cccnc1N2CC` [Entry 1031] had a concentration for half-maximal inhibition (IC50) in assay [2] of less than 50 nM.
Turning to `CCN1c2ncc(CCOc3ccc(C(=O)O)cc3Cl)cc2C(=O)N(C)c2cccnc21` [Entry 1023], the EC50 in assay [1] was more than 100 nM. Also, the IC50 in assay [2] is more than 100 nM.
As for `CCN1c2ncc(CCOc3ccc(C(=O)O)cc3C)cc2C(=O)Nc2c(C)ccnc21` [Entry 1018], the EC50 in assay [1] is less than 50 nM. For the same compound, the IC50 in assay [2] was more than 100 nM.
In assay [2], `CCN1c2ncc(CCOc3ccc(C(=O)OC)c(F)c3)cc2C(=O)N(C)c2cccnc21` [Entry 1035] yielded an IC50 of more than 100 nM.
In assay [2], `CCc1cc(C(=O)O)ccc1OCCc1cnc2c(c1)C(=O)N(C)c1cccnc1N2CC` [Entry 1003] yielded an IC50 of more than 100 nM.
For `CCN1c2ncc(CCOc3ccc(C(=O)O)cc3C)cc2C(=O)N(C)c2ccc(F)nc21` [Entry 1020], the IC50 in assay [2] is more than 100 nM.
For the compound `CCN1c2ncc(CCOc3ccc(C(=O)O)c(C)c3C)cc2C(=O)N(C)c2cccnc21` [Entry 1001], the EC50 in assay [1] was less than 50 nM. This compound also displayed an IC50 in assay [2] of more than 100 nM.

The record behind these values is patent US6706706B2, “Non-nucleoside reverse transcriptase inhibitors” (priority 2002, dated 2004).
